This data set relates to Cg-Slx1-Slx4CCD WT (Candida glabrata). The experiment in a line: fluorescence anisotropy. The note with it: 2.5 mM Ca2+; Fluorescence anisotropy: 20 mM HEPES pH 7.5, 2.5 mM CaCl2, 100 mM NaCl, 0.1 mg/ml BSA, 25 C; 25 nM DNA, 0-500 nM protein; recombinant protein; label: 5'-fluorescein on X0-1, 3'-Cy5 on X0-4; folded or branched DNA.

The exact form of at least one protein or probe is not confirmed. At least one verdict rests on a figure or table, not on a statement of the authors.

As for “ACGCTGCCGAATTCTACCAGTGCCTTGCTAGGACATCTTTGCCCACCTGCAGGTTCACCC / CGATAGTCGGATCCTCTAGACAGCTCCATGTAGCAAGGCACTGGTAGAATTCGGCAGCGT / GGGTGAACCTGCAGGTGGGCAAAGATGTCC [5'-flap substrate]”, the binding result is “binds”.

These data come from PMC6902002, “Recognition and processing of branched DNA substrates by Slx1–Slx4 nuclease”.
